Taken from: PubChem BioAssay AID1259414 (Drosophila RNAi Screening Center, 2018)
Purpose: 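Host factors increasing or decreasing Wolbachia levels in cultured fly cells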 (primary screen). Cell system: Drosophila JW18 cells infected with Wolbachia. Reagents: long dsRNA against Drosophila genes, 0.25 µg dsRNA per well of a 384-well plate. Timing: 5 days. Treatment: cells persistently infected with Wolbachia before knock-down; no added drug. Measured: 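Automated imaging of bacterial rRNA staining divided by host cell count, reported as plate-normalised robust z-score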. Direction: Wolbachia per cell robust z: higher = more Wolbachia per host cell than the plate typical. Rule for the call: 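Active if absolute robust z reaches 1.5 in two or more of three replicates, leaving out multi- or no-target dsRNAs, genes unexpressed in JW18 and A1 wells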.
The deposit covers about 24,000 reagents; this is a random part of those that have a named target and a result. In the full data, about 1,210 (5%) are marked active. 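Inactive calls also include excluded dsRNAs with several or no targets, genes unexpressed in JW18, and well A1, regardless of score.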 A plus sign joins genes that one reagent is predicted to hit.

predicted target | amplicon | Wolbachia per cell robust z, rep 1 | Wolbachia per cell robust z, rep 2 | Wolbachia per cell robust z, rep 3 | call
barc (barricade) | DRSC11792 | -2.39 | -0.886 | -0.447 | inactive
CG4653 | DRSC19909 | 0.453 | -2.16 | 0.906 | inactive
CG4653 | DRSC22857 | 0.503 | -1.11 | 1.36 | inactive
CG4653 | DRSC24329 | 0.672 | -0.678 | -0.925 | inactive
GalT1 (beta1,3-galactosyltransferase 1) | DRSC22238 | 0.815 | 0.412 | -0.449 | inactive
Unc50 (Unc50 RNA binding protein) | DRSC16561 | 0.226 | 1.09 | 0.452 | inactive
Unc50 (Unc50 RNA binding protein) | DRSC28560 | -0.126 | -0.915 | -0.161 | inactive
Unc50 (Unc50 RNA binding protein) | DRSC41269 | -1.6 | 1.06 | 1.08 | inactive
slgA (sluggish A) | DRSC20586 | -0.208 | -0.296 | 0.0802 | inactive
slgA (sluggish A) | DRSC27543 | -0.0601 | -0.276 | -0.154 | inactive
CR41454 (pseudo) | DRSC41334 | 0.15 | 0.337 | -0.133 | inactive
CAH2 (Carbonic anhydrase 2) | DRSC10746 | 0.723 | -0.476 | -3.85 | inactive
Mur2B (Mucin related 2B) | DRSC18545 | -0.537 | -0.156 | 0.32 | inactive
Mur2B (Mucin related 2B) | DRSC18546 | -0.334 | -1.51 | 0.483 | inactive
atos (atossa) | DRSC07318 | 0.314 | -3.84 | 0.511 | inactive
mAChR-C (muscarinic Acetylcholine Receptor, C-type) | DRSC17890 | -0.39 | -0.542 | -0.277 | inactive
mAChR-C (muscarinic Acetylcholine Receptor, C-type) | DRSC27441 | -0.296 | -1.19 | -1.18 | inactive
AspRS-m (Aspartyl-tRNA synthetase, mitochondrial) | DRSC02646 | 0.945 | -4.93 | 0.934 | inactive
Kul (Kuzbanian-like) | DRSC15404 | -0.0791 | 0.103 | 1.05 | inactive
Kul (Kuzbanian-like) | DRSC25888 | -1.26 | -0.246 | 0.156 | inactive
CG3862 | DRSC00631 | 0.138 | -1.21 | -0.671 | inactive
CG3862 | DRSC28505 | 0.265 | -0.33 | -0.00208 | inactive
CG42353 + CG42354 | DRSC29165 | 0.668 | -0.22 | -0.466 | inactive
CG30002 | DRSC05182 | -3.45 | -3.04 | -0.849 | inactive
CG30002 | DRSC24738 | 0.653 | -0.344 | 0.564 | inactive
mtt (mangetout) | DRSC05106 | 1.36 | -0.258 | 1.12 | inactive
mtt (mangetout) | DRSC05107 | 1.39 | 0.43 | -0.519 | inactive
mtt (mangetout) | DRSC06753 | 0.87 | -1.02 | 0.419 | inactive
mtt (mangetout) | DRSC07235 | 0.114 | 0.732 | 0.476 | inactive

In a second layout: 2 of the entries above.
predicted target,amplicon,"Wolbachia per cell robust z, rep 1","Wolbachia per cell robust z, rep 2","Wolbachia per cell robust z, rep 3",call
"mAChR-C (muscarinic Acetylcholine Receptor, C-type)",DRSC17890,-0.39,-0.542,-0.277,inactive
"mAChR-C (muscarinic Acetylcholine Receptor, C-type)",DRSC27441,-0.296,-1.19,-1.18,inactive
